Only a part is listed here, and it is no random draw. The source made the active and inactive calls. No stated cut-off is given here; in the data, active means inhibition above about 50%; inactive means the rest.
Each compound was assayed against Gag-Pol polyprotein (Human immunodeficiency virus type 1 group M subtype B (isolate HXB2)) (UniProt P04585) (assay: blockers of HIV-1 RNase H RNA/DNA cleavage – biochemical, fluorescence, primary screen (AID 565)). Details: RT-RNase H RNA/DNA duplex cleavage, at 10 µM, hits give high values.

Compound	inhibition
COC(=O)c1cc2c(s1)N=C(c1ccccc1)N(C)P2(=O)N1CCOCC1 (stereo not given)	inactive: -3.78%
O=P1(Nc2nc3ccc(Cl)cc3s2)COc2ccccc2O1 (stereo not given)	inactive: 2.12%
O=P(Nc1nccs1)(c1ccccc1)c1ccccc1	inactive: 0.49%
c1nnnn1CCn1cnnn1	inactive: -8.91%
O=C(OC1CN2CCC1CC2)c1cccc(Cl)c1 (stereo not given)	inactive: 2.68%
CCc1nc2c(n1)c1c(non1O)c1c2no[n+]1[O-]	inactive: -8.86%
Cc1c2non([O-])c-2c(C)[n+](=O)[n+]1[O-]	inactive: 23.8%
O=C(OC1CN2CCC1CC2)C12CC3CC(CC(C3)C1)C2 (stereo not given)	inactive: -6.86%
COP1(=S)c2c(C)nn(CCC#N)c2N=C(c2ccc(F)cc2)N1C (stereo not given)	inactive: -15.1%
O=C(COc1ccccc1)OC1CN2CCC1CC2 (stereo not given)	inactive: -1.13%
O=P1(Nc2ncccn2)COc2ccccc2OC1	inactive: 2.28%
O=P1(Nc2ccc(Br)cn2)COc2ccccc2OC1	inactive: 2.5%
Cc1ccc(OCC(=O)OC2CN3CCC2CC3)cc1 (stereo not given)	inactive: -5.47%
Cc1nn(-c2ccccc2)c2c1P(=O)(N1CCOCC1)N(C)C(c1ccccc1)=N2 (stereo not given)	inactive: 3.23%
O=P1(Nc2ccccn2)COc2ccccc2OC1	inactive: -4.82%
Clc1n[nH]nc1-c1nn[nH][15n]1	inactive: -14.5%
Cc1cccc(OCC(=O)OC2CN3CCC2CC3)c1 (stereo not given)	inactive: -8.27%
CCOP1(=S)c2c(C)nn(CCC#N)c2N=C(c2ccc(F)cc2)N1C (stereo not given)	active: 73.4%
CCOP1(=S)c2c(C)nn(CCC#N)c2N=C(c2ccccc2F)N1C (stereo not given)	inactive: -15.7%
O=P(Nc1nccs1)(c1ccccc1)c1nc2ccccc2s1 (stereo not given)	active: 77.3%
